Measured values from several laboratories, pooled; numbers as filed in NIAID ChemDB.

All rows: toxicity to cultured cells; cell line: 2.2.15; measure: CC50

Rows are shuffled and stem from different studies. CCn: concentration that lowers growth or viability of the cells by n%.

smiles	value
CCC(c1n[nH]c(=S)o1)S(=O)(=O)c1ccccc1	>7.5 µM
Nc1ncnc2c1ncn2C[C@@H](CO)OCP(=O)(O)O	>300 µM
COC(=O)[C@H](C)NP(=O)(OCC1C/C1=C/n1cnc2c(N)ncnc21)Oc1ccccc1	0.3 µM
CCOC(=O)c1c(CS(=O)c2ccc(F)c(F)c2)n(C2CC2)c2cc(Br)c(O)c(Cn3ccnc3)c12	21.11 µg/mL
O=c1[nH]c(=O)n([C@H]2O[C@@H](CO)[C@H](O)[C@H]2F)cc1F	>200 µM
COC(=O)[C@H](C)NP(=O)(OC[C@H]1C/C1=C/n1cnc2c(OC)nc(N)nc21)Oc1ccccc1	2.2 µM
O=S(=O)(Cc1n[nH]c(=S)o1)c1ccccc1	>7.5 µM
COc1ncnc2c1ncn2O[C@H]1CO[C@@H](CO)O1	>100 µg/mL
CC(C)CCCCCCCCCCCCCCOCCCOP(=O)(O)CO[C@H](CO)Cn1cnc2c(N)ncnc21	>300 µM
CCOC(=O)c1c(CS(=O)c2ccc(F)c(F)c2)n(C2CC2)c2cc(Br)c(O)c(CN3CCN(C)CC3)c12	34.35 µg/mL
CCCCSc1nnc(CS(=O)(=O)c2ccccc2)o1	>1.5 µM
CCOC(=O)c1c(CS(=O)c2cccc(OC)c2)n(C)c2cc(Br)c(O)c(Cc3nc(C#N)c(C#N)[nH]3)c12	28.74 µg/mL
OC[C@H]1O[C@H](On2cnc3c(Cl)ncnc32)CS1	>100 µg/mL
Nc1nc(=O)c2ncn([C@@H]3O[C@H](CO)[C@@H](O)[C@H]3O)c2c(=O)[nH]1	2427 µM
CCCCCSc1nnc(C(CC)S(=O)(=O)c2ccccc2)o1	>1.5 µM
COc1ncnc2c1ncn2O[C@@H]1CO[C@@H](CO)O1	>100 µg/mL
Cc1ccc(C(=O)Nc2ncc(Cl)s2)c(O)c1	>100 µM
COC(=O)[C@H](C)NP(=O)(OCC1C/C1=C\n1cnc2c(N)ncnc21)Oc1ccccc1	4.5 µM
COc1ncnc2c1ncn2O[C@H]1CS[C@@H](CO)O1	>100 µg/mL
CCOC(=O)c1c(CS(=O)c2cccc(Cl)c2)n(C)c2cc(Br)c(O)c(CN3CCOCC3)c12	289 µg/mL
CCCCSc1nnc(C(C)S(=O)(=O)c2ccccc2)o1	>1.5 µM
CCOC(=O)c1c(CS(=O)c2ccc(F)cc2)n(C)c2cc(Br)c(O)c(CN3CCCC3)c12	347 µg/mL
Nc1ncnc2c1ncn2[C@H]1C[C@]12C[C@H]2CO	>100 µM
C#Cc1cn([C@H]2O[C@@H](CO)[C@H](O)[C@H]2F)c(=O)[nH]c1=O	>200 µM
Nc1ncnc2c1ncn2O[C@H]1CS[C@@H](CO)O1	>100 µg/mL
CCOC(=O)c1c(CS(=O)c2ccc(F)cc2)n(C2CC2)c2cc(Br)c(O)c(CN=C(N)N)c12	18.52 µg/mL
COC(=O)C(Cc1c[nH]c2ccccc12)NP(=O)(O)OCC1C/C1=C/n1cnc2c(N)ncnc21	91 µM
CCOC(=O)c1c(CSc2ccccc2-[n+]2ccccc2)n(C)c2cc(Br)c(O)c(CSCCN)c12	8 µg/mL
Nc1nc(=O)n([C@H]2O[C@@H](CO)[C@H](O)[C@H]2F)cc1I	>200 µM
O=c1[nH]cnc2c1ncn2O[C@@H]1CO[C@@H](CO)O1	>100 µg/mL
CO[C@@H]1C[C@H](n2ccc3c(N)ncnc32)[C@@H](O)[C@H]1O	666 µg/mL
CCC(c1nnc(SCCN2CCN(c3ccccc3OC)CC2)o1)S(=O)(=O)c1ccccc1	>40 µM
Cc1cn([C@H]2O[C@@H](CO)[C@H](O)[C@H]2F)c(=O)[nH]c1=O	>200 µM
O=C(N/C(C(=O)N1CCCCC1)=C(/Cl)c1ccccc1)c1ccccc1	>81 µM
Nc1ncnc2c1ncn2[C@H]1C[C@@H](O)[C@H](O)[C@@H]1O	466 µg/mL
CCc1cn([C@H]2O[C@@H](CO)[C@H](O)[C@H]2F)c(=O)[nH]c1=O	>200 µM

A second listing of 4 rows from above:

smiles	value
O=S(=O)(Cc1n[nH]c(=S)o1)c1ccccc1	>7.5 µM
Cc1ccc(C(=O)Nc2ncc(Cl)s2)c(O)c1	>100 µM
CCC(c1n[nH]c(=S)o1)S(=O)(=O)c1ccccc1	>7.5 µM
COc1ncnc2c1ncn2O[C@@H]1CO[C@@H](CO)O1	>100 µg/mL